Results of unrelated studies side by side (data: NIAID ChemDB).

Common to all: toxicity to cultured cells; cells: 2.2.15; measure: CC50

Neighbouring rows are from separate reports.

smiles,value
O=c1[nH]cnc2c1ncn2O[C@@H]1CO[C@@H](CO)O1,>100 µg/mL
Cc1ccc(O)c(C(=O)Nc2ncc(Cl)s2)c1,>100 µM
CCC(c1nnc(SCCN2CCN(c3ccccn3)CC2)o1)S(=O)(=O)c1ccccc1,>20 µM
Nc1ccn([C@@H]2CS[C@H](CO)O2)c(=O)n1,>81 µM
O=c1[nH]c(=O)n([C@H]2O[C@@H](CO)[C@H](O)[C@H]2F)cc1/C=C/Br,>200 µM
CO[C@@H]1C[C@H](n2ccc3c(N)ncnc32)[C@@H](O)[C@H]1O,666 µg/mL
COc1ncnc2c1ncn2O[C@H]1CS[C@@H](CO)O1,>100 µg/mL
O=c1[nH]c(=O)n([C@H]2O[C@@H](CO)[C@H](O)[C@H]2F)cc1I,>200 µM
CCOC(=O)c1c(CS(=O)c2ccc(F)c(F)c2)n(C)c2cc(Br)c(O)c(Cn3ccnc3C)c12,40 µg/mL
Nc1ncnc2c1ccn2[C@H]1C[C@@H](O)[C@H](O)[C@@H]1O,277 µg/mL
O=c1[nH]cnc2c1ncn2O[C@H]1CO[C@@H](CO)O1,>100 µg/mL
CCCCCSc1nnc(C(CC)S(=O)(=O)c2ccccc2)o1,>1.5 µM
COC(=O)[C@H](C)NP(=O)(OC[C@H]1C/C1=C/n1cnc2c(OC)nc(N)nc21)Oc1ccccc1,2.2 µM
O=c1[nH]c(=O)n([C@H]2O[C@@H](CO)[C@H](O)[C@H]2F)cc1F,>200 µM
OC[C@@H]1OC[C@H](On2cnc3c(Cl)ncnc32)O1,>100 µg/mL
Nc1nc(=O)n([C@H]2O[C@@H](CO)[C@H](O)[C@H]2F)cc1Cl,>200 µM
COC(=O)[C@H](C)NP(=O)(OCC1C/C1=C/n1cnc2c(N)ncnc21)Oc1ccccc1,0.3 µM
OC[C@@H]1OC[C@@H](On2cnc3c(Cl)ncnc32)O1,>100 µg/mL
CCOC(=O)c1c(CS(=O)c2ccc(F)c(F)c2)n(C2CC2)c2cc(Br)c(O)c(Cn3ccnc3)c12,21.11 µg/mL
CC(C)CCCCCCCCCCCCCCOCCCOP(=O)(O)CO[C@H](CO)Cn1cnc2c(N)ncnc21,>300 µM
Nc1ncnc2c1ncn2O[C@H]1CO[C@@H](CO)O1,>100 µg/mL
CCOC(=O)c1c(CS(=O)c2ccc(F)cc2)n(C2CC2)c2cc(Br)c(O)c(CN=C(N)N)c12,18.52 µg/mL
Nc1ncnc2c1ncn2C[C@@H](CO)OCP(=O)(O)O,>300 µM
COC(=O)[C@H](C)NP(=O)(OCC1C/C1=C/n1cnc2c(N)ncnc21)Oc1ccccc1,0.3 µM
O=S(=O)(Cc1n[nH]c(=S)o1)c1ccccc1,>7.5 µM
CCOC(=O)c1c(CS(=O)c2cccc(OC)c2)n(C)c2cc(Br)c(O)c(Cc3nc(C#N)c(C#N)[nH]3)c12,28.74 µg/mL
COC(=O)[C@H](C)NP(=O)(OC[C@@H]1C[C@]12C[C@@H]2n1cnc2c(N)ncnc21)Oc1ccccc1,27 µM
O=c1[nH]c(=O)n([C@H]2O[C@@H](CO)[C@H](O)[C@H]2F)cc1C(F)(F)F,>200 µM
COC(=O)[C@H](C)NP(=O)(OCC1C/C1=C/n1cnc2c(=O)[nH]c(N)nc21)Oc1ccccc1,>100 µM
COC(=O)CSc1nnc(CS(=O)(=O)c2ccccc2)o1,>1.5 µM
Nc1nc(=O)c2ncn([C@@H]3O[C@H](CO)[C@@H](O)[C@H]3O)c2c(=O)[nH]1,2427 µM
CCOC(=O)c1c(CS(=O)c2ccc(F)cc2)n(C)c2cc(Br)c(O)c(CN3CCOCC3)c12,>500 µg/mL

The last 3 rows once more:

smiles	value
COC(=O)CSc1nnc(CS(=O)(=O)c2ccccc2)o1	>1.5 µM
Nc1nc(=O)c2ncn([C@@H]3O[C@H](CO)[C@@H](O)[C@H]3O)c2c(=O)[nH]1	2427 µM
CCOC(=O)c1c(CS(=O)c2ccc(F)cc2)n(C)c2cc(Br)c(O)c(CN3CCOCC3)c12	>500 µg/mL

CCn: concentration that lowers growth or viability of the cells by n%.